Pooled drug test results. Numbers come from NIAID ChemDB, via PubChem.

Common to all: tests on isolated targets; organism: HIV-1; target: Reverse transcriptase

Conditions beyond the fields shown may differ between rows.

{"SMILES": "CCN1c2ncc(CCOc3cccc4[nH]c(=O)n(C)c34)cc2C(=O)N(C)c2cccnc21", "strain": "IIIB", "method": "nucleotide incorporation / radiometric", "read-out": "IC50", "changes": "RT-K103N Y181C", "value": ">0.1 µM"}
{"SMILES": "CCN1c2ncc(CCOc3ccc(-c4ccc(C(O)C(=O)O)cc4)cc3C)cc2C(=O)N(C)c2cccnc21", "strain": "IIIB", "method": "nucleotide incorporation / radiometric", "read-out": "IC50", "changes": "RT-K103N Y181C", "value": "<0.05 µM"}
{"SMILES": "Cc1cc(C)cc(S(=O)(=O)c2c(C(N)=O)[nH]c3ccc(Cl)cc23)c1", "method": "nucleotide incorporation / radiometric", "read-out": "IC50", "changes": "RT-L100I", "value": "0.06 µM"}
{"SMILES": "CCN1C(=O)c2cc(CCOc3cccc4c3CNC(=O)N4)cnc2N(CC)c2ncccc21", "strain": "IIIB", "method": "nucleotide incorporation / radiometric", "read-out": "IC50", "changes": "RT-K103N Y181C", "value": ">0.1 µM"}
{"SMILES": "CCN1c2ncc(CCOc3ccc(S(=O)(=O)c4ccncc4)cc3C)cc2C(=O)N(C)c2cccnc21", "strain": "IIIB", "method": "nucleotide incorporation / radiometric", "read-out": "IC50", "changes": "RT-K103N Y181C", "value": "<0.05 µM"}
{"SMILES": "CCN1c2ncc(CCOc3cccc4c3CNC(=O)N4CC(=O)O)cc2C(=O)N(C)c2cccnc21", "strain": "IIIB", "method": "nucleotide incorporation / radiometric", "read-out": "IC50", "value": "<0.05 µM"}
{"SMILES": "Cc1nnc2c3ccccc3c(N3CCC4CCCCC4C3)nn12", "strain": "KER2008", "method": "RT activity / fluorescence", "read-out": "IC50", "value": "3.07 µM"}
{"SMILES": "Nc1nc2c(ncn2[C@H]2CC[C@@H](COP(=O)(O)OP(=O)(O)OP(=O)(O)O)O2)c(=O)[nH]1", "method": "nucleotide incorporation / radiometric", "read-out": "IC50", "changes": "RT-F77L", "value": "0.028 µM"}
{"SMILES": "Cc1cc(C2CC2)c2ccccc2c1-n1c(Br)nnc1SCC(=O)Nc1ccc(C(=O)O)cc1Cl", "method": "nucleotide incorporation / radiometric", "read-out": "IC50", "changes": "RT-Y181C", "value": "<0.05 µM"}
{"SMILES": "Cc1ccnc2c1NC(=O)c1cc(CCOc3cccc4c3CNC(=O)N4)cnc1N2C1CC1", "strain": "IIIB", "method": "nucleotide incorporation / radiometric", "read-out": "IC50", "changes": "RT-K103N Y181C", "value": ">0.1 µM"}
{"SMILES": "CC(C)=CCC/C(C)=C/CC/C(C)=C/CC/C(C)=C/CC/C(C)=C/CC/C(C)=C/Cc1cc(O)ccc1O", "method": "nucleotide incorporation", "read-out": "IC90", "value": "11 µM"}
{"SMILES": "CCCN1c2ccc(C)cc2N(C)C(=O)c2cc(Cl)nnc21", "read-out": "IC50", "value": ">330 µM"}
{"SMILES": "CCN1c2ncc(CCOc3ccc(C(=O)Nc4ccc(CC(=O)O)cc4)cc3C)cc2C(=O)N(C)c2cccnc21", "strain": "IIIB", "method": "nucleotide incorporation / radiometric", "read-out": "IC50", "value": "<0.05 µM"}
{"SMILES": "CCN1c2ncc(CCOc3cccc4c3CNC(=O)C4)cc2C(=O)N(C)c2cccnc21", "strain": "IIIB", "method": "nucleotide incorporation / radiometric", "read-out": "IC50", "changes": "RT-K103N Y181C", "value": "<0.05 µM"}
{"SMILES": "CC(C)=CCOc1cc(NC(=S)c2ccsc2C)ccc1Cl", "read-out": "IC50", "changes": "RT-E138K", "value": "0.2 µM"}
{"SMILES": "CCN1c2ncc(CCOc3ccc(C(=O)NCC4(C(=O)O)CCCC4)cc3C)cc2C(=O)N(C)c2cccnc21", "strain": "IIIB", "method": "nucleotide incorporation / radiometric", "read-out": "IC50", "value": "<0.05 µM"}
{"SMILES": "c1ccc(-c2nnc3c4ccccc4c(N4CCc5ccccc5C4)nn23)cc1", "strain": "IIIB", "method": "RT activity / fluorescence", "read-out": "IC90", "value": ">100 µM"}
{"SMILES": "Cc1c(Cc2ccccc2)nc(NCCCCN)[nH]c1=O", "read-out": "Ki", "changes": "RT-V179D", "value": "98 µM"}
{"SMILES": "Nc1ncnc2c1ncn2[C@H]1CC[C@@H](COP(=O)(O)OP(=O)(O)OP(=O)(O)O)O1", "strain": "LAV", "method": "nucleotide incorporation", "read-out": "Ki", "value": "13 µM"}
{"SMILES": "CCN1c2ncc(CCOc3ccc(-c4ccc(F)c(CC(=O)O)c4)cc3C)cc2C(=O)N(C)c2cccnc21", "strain": "IIIB", "method": "nucleotide incorporation / radiometric", "read-out": "IC50", "changes": "RT-K103N Y181C", "value": "<0.05 µM"}
{"SMILES": "CC(C)=CCOc1cc(NC(=S)c2ccoc2C)ccc1Cl", "read-out": "IC50", "changes": "RT-Y181I", "value": "9.5 µM"}
{"SMILES": "O=C(CSc1nnc(Br)n1-c1ccc(C2CCC2)c2ccccc12)Nc1ccc(C(=O)O)cc1Cl", "method": "nucleotide incorporation / radiometric", "read-out": "IC50", "changes": "RT-Y188L", "value": ">0.1 µM"}
{"SMILES": "Cc1cn([C@H]2CC[C@@H](COP(=O)(O)OP(=O)(O)OP(=O)(O)O)O2)c(=O)[nH]c1=O", "strain": "LAV", "method": "nucleotide incorporation", "read-out": "Ki", "value": "0.09 µM"}
{"SMILES": "CCN1c2ncc(CCOc3ccc(-c4ccc(C(=O)O)c(F)c4)cc3C)cc2C(=O)N(C)c2cccnc21", "strain": "IIIB", "method": "nucleotide incorporation / radiometric", "read-out": "IC50", "value": "<0.05 µM"}
{"SMILES": "Cc1cn([C@H]2CC[C@@H](COP(=O)(O)OP(=O)(O)OP(=O)(O)O)O2)c(=O)[nH]c1=O", "method": "nucleotide incorporation / radiometric", "read-out": "IC50", "value": "0.4 µM"}
{"SMILES": "CCCCCCCCCCCCCCCc1nc2c(cc(S(=O)(=O)O)c3ccccc32)o1", "method": "RT activity", "read-out": "IC50", "value": "<50 µM"}
{"SMILES": "NC(=O)c1[nH]c2ccc(Cl)cc2c1S(=O)(=O)c1ccccc1", "method": "nucleotide incorporation / radiometric", "read-out": "IC50", "changes": "RT-V179D", "value": "0.035 µM"}
{"SMILES": "Nc1ccc(S(=O)(=O)O)c2cccc(S(=O)(=O)O)c12", "method": "RT activity", "read-out": "IC50", "value": ">50 µM"}
{"SMILES": "O=c1cc(Cc2ccccc2)nc(NCCCCO)[nH]1", "read-out": "Ki", "value": "410 µM"}
{"SMILES": "O=C(O)CNC(=O)c1ccc(NC(=O)CSc2nnc(Br)n2-c2ccc(C3CC3)c3ccccc23)c(Cl)c1", "method": "nucleotide incorporation / radiometric", "read-out": "IC50", "value": "<0.05 µM"}
{"SMILES": "CCN1c2ncc(CCOc3ccc(-c4ccccn4)cc3C)cc2C(=O)N(C)c2cccnc21", "strain": "IIIB", "method": "nucleotide incorporation / radiometric", "read-out": "IC50", "changes": "RT-K103N Y181C", "value": "<0.05 µM"}
{"SMILES": "O=C(CCCCCCCCCCC(=O)Nc1ccc(S(=O)(=O)O)c2cccc(S(=O)(=O)O)c12)Nc1ccc(S(=O)(=O)O)c2cccc(S(=O)(=O)O)c12", "method": "RT activity", "read-out": "IC50", "value": "<50 µM"}
{"SMILES": "Nc1nc2c(ncn2[C@H]2CC[C@@H](COP(=O)(O)OP(=O)(O)OP(=O)(O)O)O2)c(=O)[nH]1", "strain": "LAV", "method": "nucleotide incorporation", "read-out": "Ki", "value": "0.07 µM"}
{"SMILES": "CCCCCCCCCCCCCCCC(=O)Oc1cc(S(=O)(=O)O)c2ccccc2c1N", "method": "RT activity", "read-out": "IC50", "value": "<50 µM"}
{"SMILES": "CCN1c2ncc(CCOc3ccc4on(C)c(=O)c4c3)cc2C(=O)Nc2c(C)cc(F)nc21", "strain": "IIIB", "method": "nucleotide incorporation / radiometric", "read-out": "IC50", "value": "<0.05 µM"}
{"SMILES": "Cc1c(N2CCc3ccccc3C2)nn2c(C)nnc2c1C", "strain": "98US_MSC5016", "method": "RT activity / fluorescence", "read-out": "IC50", "value": "47.4 µM"}
{"SMILES": "O=C(CSc1nnc(Br)n1-c1c(Cl)cc(C2CCC2)c2ccccc12)Nc1ccc(C(=O)O)cc1Cl", "method": "nucleotide incorporation / radiometric", "read-out": "IC50", "changes": "RT-Y188L", "value": "0.05–0.1 µM"}
{"SMILES": "CCCN1c2ccccc2N(C)C(=O)c2cc(Cl)nnc21", "read-out": "IC50", "value": "<330 µM"}
{"SMILES": "CCN1c2ncc(CCOc3ccc(-c4nccn4C)cc3C)cc2C(=O)N(C)c2cccnc21", "strain": "IIIB", "method": "nucleotide incorporation / radiometric", "read-out": "IC50", "value": "<0.05 µM"}
{"SMILES": "CCCN1C(=O)c2ccnnc2N(C2CC2)c2ccc(C)cc21", "read-out": "IC50", "value": ">330 µM"}
{"SMILES": "CCc1ccc(-n2c(SCC(=O)Nc3ccc(C(=O)O)cc3C)nnc2C(F)F)c2ccccc12", "method": "nucleotide incorporation / radiometric", "read-out": "IC50", "value": "<0.05 µM"}
{"SMILES": "CCCN1c2ccccc2N(C)C(=O)c2ccnnc21", "read-out": "IC50", "value": "<330 µM"}
{"SMILES": "Cc1cc(C)cc(S(=O)(=O)c2c(C(=O)NCC(N)=O)[nH]c3ccc(Cl)c(F)c23)c1", "method": "RT activity / nucleotide incorporation", "read-out": "Ki", "changes": "K103N", "value": "1.42 µM"}
{"SMILES": "[N-]=[N+]=N[C@H]1C[C@H](n2cc(/C=C/c3ccccc3)c(=O)[nH]c2=O)O[C@@H]1COP(=O)(O)OP(=O)(O)OP(=O)(O)O", "method": "nucleotide incorporation / radiometric", "read-out": "IC50", "value": "0.2 µM"}
{"SMILES": "CCc1ccc(-n2c(SCC(=O)Nc3ccc(C(=O)O)cc3Cl)nnc2C(F)(F)F)c2ccccc12", "method": "nucleotide incorporation / radiometric", "read-out": "IC50", "changes": "RT-Y181C", "value": "<0.05 µM"}
{"SMILES": "O=c1cc(Cc2ccccc2)nc(SCCCCO)[nH]1", "read-out": "Ki", "changes": "RT-V106A", "value": "157 µM"}
{"SMILES": "CCc1ccc(-n2c(Br)nnc2SCC(=O)Nc2ccc(C(=O)N[C@H](C(=O)OC)C(C)C)cc2Cl)c2ccccc12", "method": "nucleotide incorporation / radiometric", "read-out": "IC50", "changes": "RT-Y188L", "value": "<0.05 µM"}
{"SMILES": "c1ccc2c(c1)CN(c1nn3c(C4CC4)nnc3c3ccccc13)C2", "strain": "98US_MSC5016", "method": "RT activity / fluorescence", "read-out": "IC50", "value": ">100 µM"}
{"SMILES": "Cc1cc(C)cc(S(=O)(=O)c2c(C(N)=O)[nH]c3ccc(Cl)c(F)c23)c1", "method": "RT activity / nucleotide incorporation", "read-out": "Ki", "changes": "L100I", "value": "0.03 µM"}
{"SMILES": "CCN1c2ncc(CCOc3cccc4c3COC(=O)N4)cc2C(=O)N(C)c2cccnc21", "strain": "IIIB", "method": "nucleotide incorporation / radiometric", "read-out": "IC50", "value": "<0.05 µM"}
{"SMILES": "Nc1ncnc2c1ncn2[C@H]1CC[C@@H](COP(=O)(O)OP(=O)(O)OP(=O)(O)O)O1", "method": "nucleotide incorporation / radiometric", "read-out": "IC50", "changes": "RT-V75I", "value": "4.6 µM"}

For reference, 3 entries again:

SMILES | strain | method | read-out | changes | value
CCCN1c2ccccc2N(C)C(=O)c2cc(Cl)nnc21 | - | - | IC50 | - | <330 µM
O=C(CCCCCCCCCCC(=O)Nc1ccc(S(=O)(=O)O)c2cccc(S(=O)(=O)O)c12)Nc1ccc(S(=O)(=O)O)c2cccc(S(=O)(=O)O)c12 | - | RT activity | IC50 | - | <50 µM
CCN1c2ncc(CCOc3ccc(-c4ccc(C(O)C(=O)O)cc4)cc3C)cc2C(=O)N(C)c2cccnc21 | IIIB | nucleotide incorporation / radiometric | IC50 | RT-K103N Y181C | <0.05 µM

An empty or dashed field is not shown. ICn: concentration for n% inhibition. Two numbers with a dash give a range or band.